Experimental data from the supplement of paper PMC9931576.
Human monoclonal antibodies against the spike receptor-binding domain (heavy:light variable regions). IC50 against pseudoviruses bearing the spike of naturally observed variants; lower = stronger; >10 µg/ml means not reached at the top dose. No active / inactive call. The stated detection limit is 0.0005 µg/ml; values near or below 0.001 µg/ml lie at the floor of the assay.

Experiments:
Experiment in all cases: pseudovirus neutralization IC50; higher = weaker neutralization
[1] = molecular target: SARS-CoV-2 Omicron BA.1 spike pseudovirus
Experimental: (§1)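 Single-round VSV luciferase pseudovirus mixed with antibody dilutions for 1 h and put on Huh-7 cells for about a day; IC50 from the dose curve.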

[2] = molecular target: SARS-CoV-2 Omicron BA.2 spike pseudovirus
Experimental: as §1

[3] = molecular target: SARS-CoV-2 Omicron BA.2.75 spike pseudovirus
Experimental: as §1

[4] = molecular target: SARS-CoV-2 Omicron BA.5 spike pseudovirus
Experimental: as §1

[5] = molecular target: SARS-CoV-2 Omicron BQ.1.1 spike pseudovirus
Experimental: as §1

[6] = molecular target: SARS-CoV-2 Omicron XBB spike pseudovirus
Experimental: as §1

[7] = molecular target: SARS-CoV-2 early D614G spike pseudovirus
Experimental: as §1

B1: BD56-1932 (protein)
chain 1: QVQLVQSGAELKEPGSSVKVSCQASGGTFSSYAFSWVRQAPGQGLEWMGRIIPILSTTNYAQNLQGRLTIAADKSTTTVYMELSSLRSEDTAVYYCAKHLHDYGDDLLYKYIMDVWGQGTTVTVSS
chain 2: DIQMTQSPSTLSASVGDRVTITCRASQTISNWLAWYQQKPGKAPKLLISKASNLQSGVPSRFSGSGSGTEFTLTISSLQPDDFATYYCQQYNTYSPFGQGTKVEIK
Question: Which “pseudovirus neutralization IC50” value [1] does the source give for B1 here?
Answer: 0.188 µg/mL

Question: And the “pseudovirus neutralization IC50” value [2]?
Answer: 0.148 µg/mL

Question: What about the “pseudovirus neutralization IC50” value [3] of the same binder?
Answer: 0.0675 µg/mL

Question: And the “pseudovirus neutralization IC50” value [4]?
Answer: 0.0509 µg/mL

Question: And the “pseudovirus neutralization IC50” value [5]?
Answer: 0.179 µg/mL

Question: And the “pseudovirus neutralization IC50” value [6]?
Answer: 0.25 µg/mL

Question: And the “pseudovirus neutralization IC50” value [7]?
Answer: 0.002 µg/mL

B2: BD57-0109 (protein)
chain 1: EVQLVQSGAEVKKPGESLKISCKASGYSFSNYWIGWVRQRPGKGLEWMGVIYPGDSDTRYSPSFQGQVTISADKSINTAYLQWGSLKASDTAMYYCAKPFGYSGYDPEYSYDMDVWGQGTTVTVSS
chain 2: QSALTQPASVSGSPGQSITISCTGANTDVGSYNLVSWYQQHPGKAPKLIIYEGSERPSGVSNRFSGSKSGNTASLTISGLQAEDEADYYCCSYPGSSISVFGGGTKLTVL
Question: Which results are given for B2?
Answer: pseudovirus neutralization IC50 [1]: 0.594 µg/mL; pseudovirus neutralization IC50 [2]: 0.629 µg/mL; pseudovirus neutralization IC50 [3]: 0.504 µg/mL; pseudovirus neutralization IC50 [4]: 0.803 µg/mL; pseudovirus neutralization IC50 [5]: 2.24 µg/mL; pseudovirus neutralization IC50 [6]: 2.6 µg/mL; pseudovirus neutralization IC50 [7]: 2.14 µg/mL

B3: BD57-0113 (protein)
chain 1: EVQLVESGGGLVQPGRSLRLSCAASGFTFDDYAMHWVRQAPGKGLEWVSGISWNSGDIAYSDSVKGRFTISRDNAKNSLYLQMNSLRAEDTALYYCAKAPLGELPTGPFDYWGQGTRVTVSS
chain 2: QSVLTQPPSASGTPGQRVTISCSGSSSNIGTYTINWYQHLPGTAPRLLIYSNNHRPSGVPDRFSGSKSGTSASLAISGLQSEDEADYYCVAWDDSLNGWVFGGGTKLTVL
Question: What does the source list for B3?
Answer: pseudovirus neutralization IC50 [1]: 6.27 µg/mL; pseudovirus neutralization IC50 [2]: 5.45 µg/mL; pseudovirus neutralization IC50 [3]: 3.74 µg/mL; pseudovirus neutralization IC50 [4]: 3.31 µg/mL; pseudovirus neutralization IC50 [5]: 5.91 µg/mL; pseudovirus neutralization IC50 [6]: 4.57 µg/mL; pseudovirus neutralization IC50 [7]: 0.51 µg/mL

B4: BD56-1934 (protein)
chain 1: QVQLVQSGAEVKKPGSSVKVSCKASGGTFSKYAISWVRQAPGQGPEWMGRIIPMFGMANSAQKFQGRVTISADKSTSTAYMELSSLRSEDTAVYYCATSPFYPDSSGYYLDYWGQGTLVTVTS
chain 2: DIQMTQSPSSLSASVGDRVTITCRASQDINNYLAWYQQKPGKPPKLLIHGVSTLQSGVPSRFSGSGSGTDYALTISSLQPEDFAAYYCQQYYSAPRTFGPGTKVDIK
Question: What does the source list for B4?
Answer: pseudovirus neutralization IC50 [1]: 0.248 µg/mL; pseudovirus neutralization IC50 [2]: 0.218 µg/mL; pseudovirus neutralization IC50 [3]: 0.00401 µg/mL; pseudovirus neutralization IC50 [4]: > 10 µg/mL; pseudovirus neutralization IC50 [5]: > 10 µg/mL; pseudovirus neutralization IC50 [6]: > 10 µg/mL; pseudovirus neutralization IC50 [7]: 0.0046 µg/mL

B5: BD57-0118 (protein)
chain 1: QITLKESGPTLVKPTQTLTLTCTFSGFSLTTSGEGVGWIRQPPGKAPEWLALIYWNDDKHYRPSLKSRLTITKDTSKNQVVLRMTNMDPVDTATYNCAHSYYYDSRGYSFDFWGQGTLVTVSS
chain 2: DIQMTQSPSSVSASVGDRVTITCRASQNIISWLAWYQQKPGKAPKLLIYAASSLQSGVPSRFSGSGSGTDFTLTISSLQPEDFATYYCQQANNFPITFGQGTRLDIK
Question: B5 was tested. Which “pseudovirus neutralization IC50” value [1] did it give?
Answer: 1.03 µg/mL

Question: What about the “pseudovirus neutralization IC50” value [2] of the same binder?
Answer: 0.822 µg/mL

Question: What about the “pseudovirus neutralization IC50” value [3] of the same binder?
Answer: 0.455 µg/mL

Question: What about the “pseudovirus neutralization IC50” value [4] of the same binder?
Answer: 1.6 µg/mL

Question: What about the “pseudovirus neutralization IC50” value [5] of the same binder?
Answer: 2.49 µg/mL

Question: What about the “pseudovirus neutralization IC50” value [6] of the same binder?
Answer: 2.57 µg/mL

Question: And the “pseudovirus neutralization IC50” value [7]?
Answer: 0.00823 µg/mL

B6: BD56-1925 (protein)
chain 1: QVQLQESGPGLVKPSGTLSLTCAVSGGSINDRNWWSWVRQTPGKGLEWIGEIYHTGSASYNPSLKSRVTMSVDKSKNSFSLQLTSVTAADTAVFYCARSSGILDCWGQGTLVTVSS
chain 2: DIQMTQSPSSLSASVGDSVTITCRASQDISNSVAWYQQRPGKAPKLLLYAASTLESGVPSRFSGSGSGTDYTLSISSLQPEDFATYFCQQYYSTRTFGQGTKVDIK
Question: How did the “pseudovirus neutralization IC50” value [1] turn out when B6 was run?
Answer: 0.00391 µg/mL

Question: What about the “pseudovirus neutralization IC50” value [2] of the same binder?
Answer: 0.00202 µg/mL

Question: And the “pseudovirus neutralization IC50” value [3]?
Answer: 0.00557 µg/mL

Question: And the “pseudovirus neutralization IC50” value [4]?
Answer: 0.296 µg/mL

Question: What about the “pseudovirus neutralization IC50” value [5] of the same binder?
Answer: 1.59 µg/mL

Question: And the “pseudovirus neutralization IC50” value [6]?
Answer: > 10 µg/mL

Question: And the “pseudovirus neutralization IC50” value [7]?
Answer: 0.00574 µg/mL

B7: BD57-0110 (protein)
chain 1: QVQLQESGPGLVKPSETLSLTCSVSGGSISRSSYYWVWIRQPPGKGLEWIGSIYHSGSTYYNPSLKSRVTISVDTSKNQFSLKLTSVTAADTAMYYCARDWSLYGGEKFDYWGQGILVTVSS
chain 2: IVLTQSPATLSLSPGERATLSCRASQSVSSYLAWYQQKPGQAPRLLIYDASNRATGIPARFSGSGSGTDFTLTISSLEPEDFAVYYCQQRSNWPEITFGPGTKVDVK
Question: What does the source list for B7?
Answer: pseudovirus neutralization IC50 [1]: > 10 µg/mL; pseudovirus neutralization IC50 [2]: > 10 µg/mL; pseudovirus neutralization IC50 [3]: > 10 µg/mL; pseudovirus neutralization IC50 [4]: 8.23 µg/mL; pseudovirus neutralization IC50 [5]: > 10 µg/mL; pseudovirus neutralization IC50 [6]: > 10 µg/mL; pseudovirus neutralization IC50 [7]: 0.021 µg/mL

B8: BD56-1931 (protein)
chain 1: QLQLVQSGAEVKKPGASVKVSCKASGFTFTHYGISWVRQAPGQGLEWMGWLSVYNGNTNDAQKGQGRVTMTKDTSTSTAYLELRSLRSDDTAVYYCARVQEYYDRSGNPQWDAVDLWGQGTMVTVSS
chain 2: DIVMTQSPDSLAVSLGERATINCKSSQSVLYSSNNKNYLAWYQQKPGQPPKLLIYWASTRESGVPDRFSGSGSGTDFTLTISSLQAEDVAVYYCQQYSISPWTFGQGTKVEIK
Question: For B8, which “pseudovirus neutralization IC50” value [1] is on record?
Answer: > 10 µg/mL

Question: And the “pseudovirus neutralization IC50” value [2]?
Answer: > 10 µg/mL

Question: And the “pseudovirus neutralization IC50” value [3]?
Answer: > 10 µg/mL

Question: And the “pseudovirus neutralization IC50” value [4]?
Answer: > 10 µg/mL

Question: And the “pseudovirus neutralization IC50” value [5]?
Answer: > 10 µg/mL

Question: What about the “pseudovirus neutralization IC50” value [6] of the same binder?
Answer: > 10 µg/mL

Question: What about the “pseudovirus neutralization IC50” value [7] of the same binder?
Answer: 0.0792 µg/mL

B9: BD56-1927 (protein)
chain 1: QVQLVQSGAEVKKPGSSVKVSCKASGGTFSSFAINWVRQAPGQGLEWMGRIIPIVDVRNYAQKFQGRVTIAADRSTSTAYMELSSLSSEDTAVYYCARDPRPVVTMGLGDHGMDVWGQGTAVTVSS
chain 2: DIVMTQSPLSLPVTPGEPASISCRSSQSLLQSNGYNYLDWYLQKPGQSPHLLIYLGSNRASGVPDRFSGSGSGTDFTLKISRVEAEDVGIYYCMQALQTLRTFGQGTKLEIK
Question: What does the source list for B9?
Answer: pseudovirus neutralization IC50 [1]: > 10 µg/mL; pseudovirus neutralization IC50 [2]: > 10 µg/mL; pseudovirus neutralization IC50 [3]: > 10 µg/mL; pseudovirus neutralization IC50 [4]: > 10 µg/mL; pseudovirus neutralization IC50 [5]: > 10 µg/mL; pseudovirus neutralization IC50 [6]: > 10 µg/mL; pseudovirus neutralization IC50 [7]: 0.00748 µg/mL

B10: BD57-0101 (protein)
chain 1: QVQLVQSGAEVKKPGSSVKVSCKASRGTFSSYSITWVRQAPGQGLEWMGTIIPILGIANYAQKFQDRVTITADKSTSTAYMELSSLRSEDTAMFYCARDQVADSGSPSWFDPWGQGTLVTVSS
chain 2: QSVLTQPPSVSGAPGQRVTISCTGSNSNIGAGYDVHWYQQFPGTAPKLLIYANKNRPSGVPDRFSGSKSGTSASLGITGLQAEDEADYYCQSYDSSLSDVVFGGGTTLTVL
Question: With B10 as the binder, how does the “pseudovirus neutralization IC50” value [1] read?
Answer: 0.0499 µg/mL

Question: And the “pseudovirus neutralization IC50” value [2]?
Answer: 0.0202 µg/mL

Question: And the “pseudovirus neutralization IC50” value [3]?
Answer: 0.0309 µg/mL

Question: And the “pseudovirus neutralization IC50” value [4]?
Answer: 0.917 µg/mL

Question: And the “pseudovirus neutralization IC50” value [5]?
Answer: > 10 µg/mL

Question: And the “pseudovirus neutralization IC50” value [6]?
Answer: 6.06 µg/mL

Question: And the “pseudovirus neutralization IC50” value [7]?
Answer: 0.096 µg/mL

B11: BD57-0107 (protein)
chain 1: QVQLVQSGAELKKPGSSVKVSCKASGGSFNTYFITWVRQAPGQGLEWLGRILPRLGAVNYAQRFQGRVTITADDATRTAYMELSGLRSEDTAVYFCAREVGYSDSGSVSYFDPWGQGTLVTVSS
chain 2: QSVLTQPPSVSGAPGQRVTISCTGTNSNIGAGYDVHWYQQLPGTAPRLLIYANSNRPSGVPDRFSGSKSGTSASLAITGLQAEDEADYYCQSYDSSLSGSIFGGGTKVTVL
Question: Which “pseudovirus neutralization IC50” value [1] does the source give for B11 here?
Answer: 0.217 µg/mL

Question: And the “pseudovirus neutralization IC50” value [2]?
Answer: 0.143 µg/mL

Question: What about the “pseudovirus neutralization IC50” value [3] of the same binder?
Answer: 0.0928 µg/mL

Question: And the “pseudovirus neutralization IC50” value [4]?
Answer: > 10 µg/mL

Question: What about the “pseudovirus neutralization IC50” value [5] of the same binder?
Answer: > 10 µg/mL

Question: What about the “pseudovirus neutralization IC50” value [6] of the same binder?
Answer: 2.43 µg/mL

Question: What about the “pseudovirus neutralization IC50” value [7] of the same binder?
Answer: 0.176 µg/mL

B12: BD57-0104 (protein)
chain 1: EVQLVESGGGLVKPGGSLRLSCVASGFIFSDYSMNWVRQAPGKGLEWVSSISRSDTRTYYADSVRGRFTISRDNAKNALYLQMNSLRAEDTAVYYCARGDLWGFDLVMEVAGHFDYWGQGTLVTVSS
chain 2: EIVLTQSPGTLSLSPGESATLSCRASQSVSSSSLAWYQQKPGQAPRLLIYGAYSRATGVPDRFSGSGSGTDFTLTISRLEPEDFAVYYCQQFGSSPLYTFGQGTKLEIK
Question: What does the source list for B12?
Answer: pseudovirus neutralization IC50 [1]: 6.67 µg/mL; pseudovirus neutralization IC50 [2]: 5.19 µg/mL; pseudovirus neutralization IC50 [3]: 4.3 µg/mL; pseudovirus neutralization IC50 [4]: 4.83 µg/mL; pseudovirus neutralization IC50 [5]: > 10 µg/mL; pseudovirus neutralization IC50 [6]: > 10 µg/mL; pseudovirus neutralization IC50 [7]: > 10 µg/mL
